Test results from paper PMC3260234.

Assays:
[1] = target: T1, OxyS (Mycobacterium tuberculosis) (UniProt L7N677); assay: competition with a labelled probe; conditions: 20 mM Tris-HCl pH 7.5, 100 mM NaCl, 2 mM EDTA, room temperature 20 min, recombinant protein, protein details: 6xHis (pET28a), probe letters rebuilt from the primers and the genome
T1 sequence (looked up, limits assumed): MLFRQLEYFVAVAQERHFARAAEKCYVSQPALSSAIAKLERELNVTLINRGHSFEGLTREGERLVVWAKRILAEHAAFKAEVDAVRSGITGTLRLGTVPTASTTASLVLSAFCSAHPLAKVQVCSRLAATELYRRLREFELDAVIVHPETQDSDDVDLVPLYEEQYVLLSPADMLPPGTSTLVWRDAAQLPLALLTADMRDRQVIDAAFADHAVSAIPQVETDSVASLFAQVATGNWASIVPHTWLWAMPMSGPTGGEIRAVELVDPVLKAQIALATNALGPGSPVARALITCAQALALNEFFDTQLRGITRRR

[2] = target: T1, OxyS (Mycobacterium tuberculosis); assay: EMSA; conditions: 20 mM Tris-HCl pH 7.5, 100 mM NaCl, 2 mM EDTA, room temperature 20 min, recombinant protein, protein details: 6xHis (pET28a), probe letters rebuilt from the primers and the genome

Measured: binding result

AGCATTCCTTCCAGGAGTTGGTGTTATCGGGCTGTGATCACGGATGTGATCGCGAAGTGTCGGATATCGAACAATCAGGACATAGACCCCAGTAGATGACCTCCGCCTCGTCCAACAGGAAGCCGTTATGGTCCGAGGCCGTCAGACAGGGTGCCTCGCCAACAGCACAGTCGACATCGGCGATAACCCCGCAAGACCGGCAGACGATGTGATGGTGGTTGTCGCCGACCCTGGACTCGTAGCGCGCGACGGAGCCCGAGGGTTGGATCTTTCGCACCAAGCCCGCGGCGGTCAGGGCATGCAGCACGTCGTACACGGCTTGCCGGGATACGTCGGGCAGCGCAAAACGC (double strand) [katGp]
binds: [1] | [2]; 100-600 nM OxyS | [2]; DTT (no effect), 400 nM OxyS

For at least one entry, the source does not settle the construct or the ends of the probe. For part of these data: At least one verdict was read from the data and is not stated in words by the source. Tags and fusion partners may be left off the protein sequences shown.
